Construct, isoform or probe ends are uncertain for at least one entry. For part of these data: Negatives hold for the conditions tested.

Series [1] concerns the target T1, MBP-PsbP (NbPsbP1, oxygen-evolving enhancer protein 2) (Nicotiana benthamiana) (UniProt A0A4D6IA34). The series is described as follows: EMSA. As to conditions: 2 mM ATP, 5 mM Mg2+, 20 mM Tris-HCl pH 8.0, 2 mM DTT, 5 mM MgCl2, 12% glycerol, 25 mM KCl, 10 nM probe, 15 min, room temperature, 3.7% native PAGE, recombinant protein, residues 1-265, protein details: N-terminal MBP (pMAL-c2X), single-stranded DNA. In general terms: Mobility shift assays separate free from complexed probe on a gel.

The target in series [2] is T1, MBP-PsbP (NbPsbP1, oxygen-evolving enhancer protein 2) (Nicotiana benthamiana). The series is described as follows: competition with a labelled probe. The following applies: 100-fold excess (1 uM) vs ssDNA probe N4, 2 mM ATP, 20 mM Tris-HCl pH 8.0, 2 mM DTT, 5 mM MgCl2, 12% glycerol, 25 mM KCl, 10 nM probe, 15 min, room temperature, 3.7% native PAGE, recombinant protein, residues 1-265, protein details: N-terminal MBP (pMAL-c2X), single-stranded DNA.

The subject of the next series is MBP. Put plainly: EMSA. The following applies: 2 mM ATP, 5 mM Mg2+, 20 mM Tris-HCl pH 8.0, 2 mM DTT, 5 mM MgCl2, 12% glycerol, 25 mM KCl, 10 nM probe, 15 min, room temperature, 3.7% native PAGE, recombinant protein, label: 32P, single-stranded DNA.

Turning to “GTCGACTACAGATGAACGCGTATACACATC [βC1 probe]”, in series [1] (label: 5'-32P), the binding result is “binds”.
On to “ACGCTACGCAGCAGCCTTAGCTAC [SCR probe (1303-1326)]”, for which the binding result in series [1] (binding increases with ATP, label: 5'-32P) is “binds”.
Take ATTGGTGTCTGGAGTCCTAT [CR probe]: in series [1] (label: 5'-32P), the binding result is “binds”.
Take “AGGCTGGATTTGCTGGAGATGATG [NbActin ssDNA competitor]”: the binding result in series [2] is “binds”.
“CTAAAACTCGTCGGAACTCCGATTAAGGCACTTCCGGTCACCAATTTGCGACACGCGCGGCGGTGCGTACCCCTGGGAGGGTAGGGTACCACTACGCTACGCAGCAGCCTTAGCTA [ssDNA probe 1210-1325]”: the values for the binding result (in series [1] (label: 32P); in the series on MBP) were “binds” and “no binding”, respectively.

These data come from publication PMC6589724, “A geminivirus betasatellite encoded βC1 protein interacts with PsbP and subverts PsbP‐mediated antiviral defence in plants”.
